The entries are a selection whose mix differs from that of the whole data set.
Tests used:
Format in all cases: functional
[1] = biological target: Solute carrier family 2, facilitated glucose transporter member 1 (Homo sapiens) (UniProt P11166); assay: ST_JUDE_LEISH: Cytotoxicity at 2uM final concentration against transgenic Leishmania Mexicana promastigotes LmGLUT1 that are glucose transport deficient and complemented with the human glucose transporter GLUT1. Activity is measured by DNA content using SYBR green in vitro
[2] = biological target: Hexose transporter 1 (Plasmodium falciparum) (UniProt O97467); assay: ST_JUDE_LEISH: Cytotoxicity at 2uM final concentration against transgenic Leishmania Mexicana promastigotes LmPfHT that are glucose transport deficient and complemented with the Plasmodium falciparum hexose transporter. Activity is measured by DNA content using SYBR green in vitro
[3] = biological target: Glucose transporter (Leishmania mexicana) (UniProt O61059); assay: ST_JUDE_LEISH: Cytotoxicity at 2uM final concentration against transgenic Leishmania Mexicana promastigotes LmGT2 that are glucose transport deficient and complemented with the L. Mexicana glucose transporter 2. Activity is measured by DNA content using SYBR green in vitro

Amino acid sequences for entries named in this document (tags omitted). Residues count along the entry.
UniProt P11166, whole entry: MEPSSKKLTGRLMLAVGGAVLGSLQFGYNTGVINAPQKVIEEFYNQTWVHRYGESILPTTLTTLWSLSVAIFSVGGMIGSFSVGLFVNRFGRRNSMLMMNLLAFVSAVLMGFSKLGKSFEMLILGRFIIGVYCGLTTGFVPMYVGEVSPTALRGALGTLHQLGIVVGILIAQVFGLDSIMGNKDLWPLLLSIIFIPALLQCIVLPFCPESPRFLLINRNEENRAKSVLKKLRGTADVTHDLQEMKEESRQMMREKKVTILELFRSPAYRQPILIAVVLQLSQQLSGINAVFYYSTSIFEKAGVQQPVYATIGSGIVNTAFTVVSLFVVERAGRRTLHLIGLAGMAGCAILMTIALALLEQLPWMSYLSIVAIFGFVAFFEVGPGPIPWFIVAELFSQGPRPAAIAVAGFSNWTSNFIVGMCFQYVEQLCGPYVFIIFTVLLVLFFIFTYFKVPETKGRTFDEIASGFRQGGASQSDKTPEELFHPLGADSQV
UniProt O97467, 1-504: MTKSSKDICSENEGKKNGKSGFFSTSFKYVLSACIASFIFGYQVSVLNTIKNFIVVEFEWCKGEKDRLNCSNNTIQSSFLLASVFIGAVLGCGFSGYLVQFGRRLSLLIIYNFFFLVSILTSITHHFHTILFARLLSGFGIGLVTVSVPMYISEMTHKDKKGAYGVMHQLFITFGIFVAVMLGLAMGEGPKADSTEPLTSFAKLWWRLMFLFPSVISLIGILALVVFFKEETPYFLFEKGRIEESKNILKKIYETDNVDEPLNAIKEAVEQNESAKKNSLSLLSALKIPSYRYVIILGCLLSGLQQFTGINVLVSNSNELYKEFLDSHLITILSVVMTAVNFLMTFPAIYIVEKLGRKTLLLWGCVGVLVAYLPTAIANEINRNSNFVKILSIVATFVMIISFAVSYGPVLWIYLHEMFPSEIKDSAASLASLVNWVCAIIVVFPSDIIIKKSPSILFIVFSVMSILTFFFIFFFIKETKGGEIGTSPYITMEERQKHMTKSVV
UniProt O61059, 1-567: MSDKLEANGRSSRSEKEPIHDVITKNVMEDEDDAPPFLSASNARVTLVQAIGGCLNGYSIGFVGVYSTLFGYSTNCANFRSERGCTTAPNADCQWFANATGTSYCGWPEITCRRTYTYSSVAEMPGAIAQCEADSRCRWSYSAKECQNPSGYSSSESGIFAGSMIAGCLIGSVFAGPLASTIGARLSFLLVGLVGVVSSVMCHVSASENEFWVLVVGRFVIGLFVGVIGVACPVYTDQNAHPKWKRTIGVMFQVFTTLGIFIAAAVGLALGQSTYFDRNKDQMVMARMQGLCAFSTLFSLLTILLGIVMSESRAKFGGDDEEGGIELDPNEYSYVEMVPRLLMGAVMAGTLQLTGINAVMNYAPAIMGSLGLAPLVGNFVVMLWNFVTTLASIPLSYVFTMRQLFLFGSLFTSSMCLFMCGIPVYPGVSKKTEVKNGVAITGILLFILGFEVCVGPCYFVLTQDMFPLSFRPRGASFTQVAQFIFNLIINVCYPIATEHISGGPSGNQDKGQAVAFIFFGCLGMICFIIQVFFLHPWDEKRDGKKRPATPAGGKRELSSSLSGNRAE

SMILES | inhibition [1] [%] | inhibition [2] [%] | inhibition [3] [%]
Cn1c(=O)n(C2CCN(CCCC(c3ccc(F)cc3)c3ccc(F)cc3)CC2)c2ccccc21 | 13.5 | 15.1 | 12.8
CC(C)(C)c1cc2cc(N(C(=O)c3ccc(C(F)(F)F)cc3)C3CCN(Cc4ccccc4)CC3)ccc2[nH]1 | 1.61 | 0.39 | -0.65
